{"sequences": {"note": "Protein sequences, listed by entry. Tags and fused reporters are not part of them.", "UniProt Q00975, whole entry, looked up": "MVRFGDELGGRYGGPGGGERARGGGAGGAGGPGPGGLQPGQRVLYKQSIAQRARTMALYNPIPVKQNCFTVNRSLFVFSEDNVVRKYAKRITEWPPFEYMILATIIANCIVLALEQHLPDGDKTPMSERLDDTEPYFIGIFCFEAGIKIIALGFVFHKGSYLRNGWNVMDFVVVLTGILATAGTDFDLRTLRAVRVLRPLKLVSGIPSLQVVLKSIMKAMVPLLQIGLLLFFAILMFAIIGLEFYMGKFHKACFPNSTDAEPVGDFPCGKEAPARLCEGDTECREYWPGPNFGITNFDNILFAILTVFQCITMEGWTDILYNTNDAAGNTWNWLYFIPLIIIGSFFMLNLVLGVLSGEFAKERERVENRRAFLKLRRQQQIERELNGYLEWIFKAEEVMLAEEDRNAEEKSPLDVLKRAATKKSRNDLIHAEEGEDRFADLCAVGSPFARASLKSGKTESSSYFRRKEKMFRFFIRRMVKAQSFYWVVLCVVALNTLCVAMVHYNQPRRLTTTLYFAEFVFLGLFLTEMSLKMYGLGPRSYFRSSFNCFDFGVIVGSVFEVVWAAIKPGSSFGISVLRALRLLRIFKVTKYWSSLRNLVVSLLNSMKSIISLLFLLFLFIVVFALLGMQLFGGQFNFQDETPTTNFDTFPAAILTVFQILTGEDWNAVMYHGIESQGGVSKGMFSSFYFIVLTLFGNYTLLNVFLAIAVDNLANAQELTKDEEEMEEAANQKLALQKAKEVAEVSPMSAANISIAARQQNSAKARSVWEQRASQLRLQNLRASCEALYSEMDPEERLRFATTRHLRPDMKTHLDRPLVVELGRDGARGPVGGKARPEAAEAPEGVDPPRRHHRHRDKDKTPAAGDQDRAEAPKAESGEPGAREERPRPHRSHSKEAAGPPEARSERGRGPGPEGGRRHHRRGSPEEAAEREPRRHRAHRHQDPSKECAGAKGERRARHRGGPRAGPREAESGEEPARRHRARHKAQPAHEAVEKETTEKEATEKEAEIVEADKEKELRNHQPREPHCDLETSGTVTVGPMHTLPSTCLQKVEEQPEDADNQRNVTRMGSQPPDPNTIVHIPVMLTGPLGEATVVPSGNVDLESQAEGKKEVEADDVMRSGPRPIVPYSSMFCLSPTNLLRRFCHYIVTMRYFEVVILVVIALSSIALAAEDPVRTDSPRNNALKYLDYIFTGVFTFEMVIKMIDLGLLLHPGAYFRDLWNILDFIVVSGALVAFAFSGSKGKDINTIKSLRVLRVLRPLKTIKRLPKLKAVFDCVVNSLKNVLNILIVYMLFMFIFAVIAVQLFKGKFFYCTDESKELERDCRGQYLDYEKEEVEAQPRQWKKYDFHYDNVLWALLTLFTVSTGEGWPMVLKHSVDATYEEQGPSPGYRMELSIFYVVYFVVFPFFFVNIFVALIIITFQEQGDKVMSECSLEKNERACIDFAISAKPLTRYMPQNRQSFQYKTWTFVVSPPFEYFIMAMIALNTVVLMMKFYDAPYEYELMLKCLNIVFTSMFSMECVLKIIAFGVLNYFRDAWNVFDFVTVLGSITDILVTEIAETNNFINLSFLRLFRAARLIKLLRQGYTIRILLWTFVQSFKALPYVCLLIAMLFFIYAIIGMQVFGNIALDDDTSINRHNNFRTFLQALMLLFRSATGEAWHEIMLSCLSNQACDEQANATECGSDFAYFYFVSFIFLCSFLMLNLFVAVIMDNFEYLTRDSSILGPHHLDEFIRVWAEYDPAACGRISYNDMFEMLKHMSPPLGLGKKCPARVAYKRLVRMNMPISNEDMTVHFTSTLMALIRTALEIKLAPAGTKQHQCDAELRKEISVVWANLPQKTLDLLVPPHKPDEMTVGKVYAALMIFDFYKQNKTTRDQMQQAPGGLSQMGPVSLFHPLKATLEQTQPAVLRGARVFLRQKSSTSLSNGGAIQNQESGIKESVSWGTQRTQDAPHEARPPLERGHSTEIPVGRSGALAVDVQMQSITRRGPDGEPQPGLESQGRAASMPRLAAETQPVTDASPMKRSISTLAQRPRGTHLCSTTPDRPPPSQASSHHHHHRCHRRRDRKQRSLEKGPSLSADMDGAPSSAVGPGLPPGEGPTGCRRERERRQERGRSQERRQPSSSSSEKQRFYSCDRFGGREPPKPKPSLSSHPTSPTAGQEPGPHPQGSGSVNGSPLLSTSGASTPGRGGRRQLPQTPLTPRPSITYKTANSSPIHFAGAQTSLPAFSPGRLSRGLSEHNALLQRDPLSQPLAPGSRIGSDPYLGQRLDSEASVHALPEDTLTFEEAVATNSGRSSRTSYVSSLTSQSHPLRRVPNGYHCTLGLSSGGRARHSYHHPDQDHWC"}, "source": "paper PMC6128854", "about": "(Scientific Reports, 2018)", "biological_target": "Cav2.2 in human SH-SY5Y cell membranes (Homo sapiens, UniProt Q00975)", "assay": "125I-GVIA radioligand displacement, SH-SY5Y cell membranes", "format": "binding"}
{"compound": "CSCC[C@@H]1NC(=O)[C@H](CC(C)C)NC(=O)[C@H](CCCNC(=N)N)NC(=O)[C@H](CO)NC(=O)[C@@H]2CSSC[C@@H]3NC(=O)[C@H](CO)NC(=O)CNC(=O)[C@H]([C@@H](C)O)NC(=O)[C@H](CSSC[C@H](N)C(=O)N[C@@H](CCCCN)C(=O)NCC(=O)N[C@@H](CCCCN)C(=O)NCC(=O)N[C@@H](C)C(=O)N[C@@H](CCCCN)C(=O)N2)NC(=O)[C@H](CSSC[C@@H](C(N)=O)NC(=O)[C@H](CCCCN)NC(=O)CNC(=O)[C@H](CO)NC(=O)[C@H](CCCNC(=N)N)NC3=O)NC(=O)[C@H](CC(=O)O)NC(=O)[C@H](CCCNC(=N)N)NC1=O", "values": [{"measurement": "fold decrease in binding affinity over MVIIA", "result": "~ 100 fold"}]}
